Pooled drug test results. Numbers come from NIAID ChemDB, via PubChem.

All rows: enzyme or target tests

An empty or dashed field is not shown.

structure	tested at	agent	read by	strain	measure	changes	protein	result
Cc1ccc(Cl)cc1Nc1nc(C(F)(F)F)ccc1C(=O)NN1CCN(c2cccc(Cl)c2)CC1		HIV-1	RNase H / absorbance		IC50	A502F	RNase H	47.7 µM
O=C1c2c(O)c(=O)cc(CO)n2CCN1Cc1ccc(Cl)c(Cl)c1		HIV-1	ELISA		IC50		Integrase	0.01–0.1 µM
CC(C)(C#Cc1ccc(NC(=O)CSc2nnnn2-c2ccc(C3CC3)cc2Cl)c(Cl)c1)OCCNC1CCC1		HIV-1	PicoGreen / fluorescence	WT	IC50		Reverse transcriptase	<1 µM
O=c1c(Sc2ccccc2)cn2ccn(Cc3cccc(Cl)c3)c(=O)c2c1O		HIV-1	ELISA		IC50		Integrase	0.01–0.1 µM
CCN1c2ncc(CCOc3ccc(CC(=O)O)c4ccccc34)cc2C(=O)Nc2c(C)ccnc21		HIV-1	nucleotide incorporation / radiometric		fold resistance	RT-K103N Y181C	Reverse transcriptase	>10
CC(C)(C#Cc1ccc(NC(=O)CSc2nnnn2-c2ccc(CC3CC3)cc2Cl)c(Cl)c1)OCCN1CCCC1		HIV-1	PicoGreen / fluorescence		IC50	RT-K103 Y181C	Reverse transcriptase	<1 µM
CCN1c2ncc(CCOc3ccc(C(=O)O)c4c3CCN(C(=O)N(C)C)C4)cc2C(=O)N(C)c2cccnc21		HIV-1	nucleotide incorporation / radiometric		fold resistance	RT-Y188L	Reverse transcriptase	1–10
COc1cccc(CC(=O)Nc2ccc(NC(=O)CSc3nnnn3-c3ccc(C(C)(C)C)cc3Cl)c(Cl)c2)c1		HIV-1	PicoGreen / fluorescence	WT	IC50		Reverse transcriptase	<1 µM
COc1cccc(Cn2cccc2/C=C/C(=O)CC(=O)C(=O)O)c1		HIV-1	substrate cleavage / fluorescence		IC50		RNase H	87 µM
Cc1ccc(-n2nnnc2SCC(=O)Nc2ccc(-c3ccc(O)cc3)cc2Cl)c(Cl)c1		HIV-1	PicoGreen / fluorescence	WT	IC50		Reverse transcriptase	<1 µM
COc1ccnc2[nH]cc(C(=O)C(=O)N3CCN(C(=O)c4ccccc4)C[C@H]3C)c12		HIV-1	ELISA	LAI	fold resistance	GP120-M434V	gp120	67
Cc1cn([C@H]2CC[C@@H](COP(=O)(O)OP(=O)(O)OP(=O)(O)OP(=O)(O)OC[C@@H]3CC[C@H](n4cc(C)c(=O)[nH]c4=O)O3)O2)c(=O)[nH]c1=O		HIV	nucleotide incorporation / radiometric		fold resistance	RT-D67N K70R T215Y K219Q	Reverse transcriptase	0.107
CC(C)(C#Cc1ccc(NC(=O)CSc2nnnn2-c2ccc(C3CC3)cc2Cl)c(Cl)c1)NC(=O)CN=c1ccn(O)cc1		HIV-1	PicoGreen / fluorescence	WT	IC50		Reverse transcriptase	<1 µM
CC(C)(C)NC(=O)[C@@H]1CCCN1C(=O)[C@H](O)[C@H](Cc1ccccc1)NC(=O)[C@H](CC(N)=O)NC(=O)OCc1ccccc1	5 µM	HIV-1			inhibition		Protease	4.9%
CS(=O)(=O)N1CCc2nc(C(=O)NCc3ccc(F)cc3)c(O)c(=O)n2CC1		HIV-1	ELISA		IC50		Integrase	<10 µM
CCOC(=O)C(=O)CC(=O)/C=C/c1cccn1Cc1ccc(C)cc1C	100 µM	HIV-1	substrate cleavage / fluorescence		inhibition	N474A	RNase H	44%
Cc1nnc(SCC(=O)Nc2ccc(C#CC(C)(C)COC(N)=O)cc2Cl)n1-c1ccc(C2CC2)cc1Cl		HIV-1	PicoGreen / fluorescence		IC50	RT-K103 Y181C	Reverse transcriptase	<1 µM
CCN(CC)c1cn2ccn(Cc3cccc(Cl)c3)c(=O)c2c(O)c1=O		HIV-1	ELISA		IC50		Integrase	0.01–0.1 µM
Nc1ccn([C@H]2CC[C@@H](COP(=O)(O)OP(=O)(O)OP(=O)(O)OP(=O)(O)OC[C@@H]3CC[C@H](n4ccc(N)nc4=O)O3)O2)c(=O)n1		HIV	nucleotide incorporation / radiometric		fold resistance	RT-W88G	Reverse transcriptase	4.35
CN1CCN(S(=O)(=O)N(C)C2COCCn3c2nc(C(=O)NCc2ccc(F)cc2)c(O)c3=O)CC1		HIV-1	ELISA		IC50		Integrase	<10 µM
O=C(CSc1nnnn1-c1ccc(C2CC2)cc1Cl)Nc1ccc(-c2ccc(OCCN3CCS(=O)(=O)CC3)cc2)c(F)c1Cl		HIV-1	PicoGreen / fluorescence	WT	IC50		Reverse transcriptase	<1 µM
Nc1ccn([C@H]2CC[C@@H](COP(=O)(O)OP(=O)(O)OP(=O)(O)O)O2)c(=O)n1		HIV	nucleotide incorporation / radiometric		IC50	RT-W88G	Reverse transcriptase	0.28 µM
CC(C)(C)NC(=O)[C@@H]1CCCN1C(=O)[C@@H](O)[C@H](Cc1ccccc1)NC(=O)[C@H](CC(N)=O)NC(=O)c1nccc2ccccc12	0.05 µM	HIV-1			inhibition		Protease	27.2%
O=C(CCC(=O)N[C@@H](Cc1ccccc1)C(=O)OCc1ccccc1)N[C@@H](Cc1ccccc1)C(=O)OCc1ccccc1	10 µM	HIV-1	absorbance		inhibition		Protease	<10%
CC1(C)c2nc(C(=O)NCc3ccc(F)cc3)c(O)c(=O)n2CCN1Cc1cnccn1		HIV-1	ELISA		IC50		Integrase	<10 µM
CC(C)(C)c1ccc(-n2nnnc2SCC(=O)Nc2ccc(C#CCCCCO)cc2Cl)c(Cl)c1		HIV-1	PicoGreen / fluorescence	WT	IC50		Reverse transcriptase	<1 µM
Cc1ccc(Cl)cc1Nc1nc(C(F)(F)F)ccc1C(=O)NN1CCN(c2ccc(F)cc2)CC1		HIV-1	RNase H / absorbance		IC50		RNase H	>100 µM
CCOC(=O)C(=O)CC(=O)/C=C/c1cc(-c2ccccc2)cn1Cc1ccc(F)cc1		HIV-1	substrate cleavage / fluorescence		IC50	N474A	RNase H	>100 µM
CC(C)(C)c1ccc(-n2nnnc2SCC(=O)Nc2ccc(NC(=O)CCC(=O)O)cc2Cl)c(Cl)c1		HIV-1	PicoGreen / fluorescence	WT	IC50		Reverse transcriptase	<1 µM
CCCC[C@H](NC(=O)C(=O)N[C@@H](CCCC)C(=O)OCC(C)C)C(=O)OCC(C)C	10 µM	HIV-1	absorbance		inhibition		Protease	35%
CCN1c2ncc(CCOc3ccc(CC(C)C(=O)O)c4ccccc34)cc2C(=O)Nc2c(C)ccnc21		HIV-1	nucleotide incorporation / radiometric		fold resistance	RT-V106A	Reverse transcriptase	>10
CNc1ccccc1C(=O)O[C@H]1[C@@H](O)[C@H](n2cnc3c(N)ncnc32)O[C@@H]1COP(=O)(O)OP(=O)(O)OP(=O)(O)OP(=O)(O)OC[C@@H]1CC[C@H](n2cnc3c(=O)[nH]c(N)nc32)O1		HIV	nucleotide incorporation / radiometric		fold resistance	RT-D67N K70R T215Y K219Q	Reverse transcriptase	0.0526
Cc1ccc(Cn2cccc2/C=C/C(=O)CC(=O)C(=O)O)c(C)c1		HIV-1	substrate cleavage / fluorescence		IC50	R448A	RNase H	27 µM
CC(C)(C#Cc1ccc(NC(=O)CSc2nnnn2-c2ccc(C3CC3)cc2Cl)c(Cl)c1)NC(=O)C1(C(=O)O)CC1		HIV-1	PicoGreen / fluorescence		IC50	RT-K103 Y181C	Reverse transcriptase	<1 µM
CC(C)COC(=O)C(Cc1ccncc1)NC(=O)C(=O)NC(Cc1ccncc1)C(=O)OCC(C)C	10 µM	HIV-1	absorbance		inhibition		Protease	<10%
COCC1CN(Cc2ccc(Cl)c(Cl)c2)C(=O)c2c(O)c(=O)ccn21		HIV-1	ELISA		IC50		Integrase	0.01–0.1 µM
Cn1nncc1CN1CCn2c(nc(C(=O)NCc3ccc(F)cc3)c(O)c2=O)C1(C)C		HIV-1	ELISA		IC50		Integrase	<10 µM
Cc1ccc(-c2c(OCC(=O)Nc3ccc(C#CC(C)(C)O)cc3Cl)n[nH]c2C)c(Cl)c1		HIV-1	PicoGreen / fluorescence	WT	IC50		Reverse transcriptase	<1 µM
O=C(Cc1cc(=O)c(O)c2n1CCN(Cc1ccc(Cl)c(Cl)c1)C2=O)OCc1ccccc1		HIV-1	ELISA		IC50		Integrase	<0.01 µM
CC(C)(C)NC(=O)[C@H]1N(C(=O)[C@@H](O)[C@H](Cc2ccccc2)NC(=O)[C@H](CC(N)=O)NC(=O)COc2cccc3ccccc23)CSC1(C)C	0.05 µM	HIV-1			inhibition		Protease	98.9%
CCN1c2ncc(CCOc3ccc(C(=O)O)c4c3CCCC4)cc2C(=O)N(C)c2ccc(C)nc21		HIV-1	nucleotide incorporation / radiometric		fold resistance	RT-V106A	Reverse transcriptase	>10
Nc1ccn([C@@H]2CS[C@H](COP(=O)(O)OP(=O)(O)OP(=O)(O)O)O2)c(=O)n1		HIV	radiometric		fold resistance	RT-M184V	Reverse transcriptase	296
COC(=O)[C@@H](NC(=O)CCCCCC(=O)N[C@H](C(=O)OC)C(C)C)C(C)C	10 µM	HIV-1	absorbance		inhibition		Protease	<10%
COc1ccc(Cl)cc1Cn1ccn2ccc(=O)c(O)c2c1=O		HIV-1	ELISA		IC50		Integrase	0.01–0.1 µM
Cc1ccc(-n2nnnc2SCC(=O)Nc2ccc(-c3cnc[nH]3)cc2Cl)c(Cl)c1		HIV-1	PicoGreen / fluorescence	WT	IC50		Reverse transcriptase	<1 µM
O=C(OCc1ccccc1)C(Cc1ccccc1)c1cc(=O)c(O)c2n1CCN(Cc1ccc(Cl)c(Cl)c1)C2=O		HIV-1	ELISA		IC50		Integrase	0.01–0.1 µM
CC(C)(C#Cc1ccc(NC(=O)CSc2nnnn2-c2ccc(C(C)(C)C)cc2Cl)c(Cl)c1)OCC(=O)Nc1ccon1		HIV-1	PicoGreen / fluorescence		IC50	RT-K103 Y181C	Reverse transcriptase	<1 µM
CC(C)(C)OC(=O)N[C@@H](Cc1ccccc1)C(=O)N[C@@H](CC(N)=O)C(=O)N[C@@H](Cc1ccccc1)[C@@H](O)C(=O)NCC1CCCCC1	1000 µM	HIV-1			inhibition		Protease	80.5%
CC(C)(C)c1ccc(-n2nnnc2SCC(=O)Nc2ccc(OCC(=O)NCc3ccc(N)cc3)cc2Cl)c(Cl)c1		HIV-1	PicoGreen / fluorescence	WT	IC50		Reverse transcriptase	<1 µM
CC(C)(C)NC(=O)[C@@H]1CSCN1C(=O)[C@@H](O)[C@H](Cc1ccccc1)NC(=O)[C@H](CS(C)(=O)=O)NC(=O)COc1cccc(C(=O)N2CCCCC2)c1	0.05 µM	HIV-1			inhibition		Protease	74.6%
Cc1cc(C(F)(F)F)cc(-n2nnnc2SCC(=O)Nc2ccc(C#CC(C)(C)O)cc2Cl)c1Cl		HIV-1	PicoGreen / fluorescence		IC50	RT-K103 Y181C	Reverse transcriptase	<1 µM
CCC(CC)NC(=O)[C@@H]1CCCN1C(=O)[C@@H](O)[C@H](Cc1ccccc1)NC(=O)[C@H](CC(N)=O)NC(=O)OCc1ccccc1	5 µM	HIV-1			inhibition		Protease	>90%
CC(C)(C)c1ccc(-n2nnnc2SCC(=O)Nc2ccc(OCC(=O)NCCN3CCOCC3)cc2Cl)c(Cl)c1		HIV-1	PicoGreen / fluorescence	WT	IC50		Reverse transcriptase	<1 µM
CCOCn1c(Sc2ccccc2)c(CC)c(=O)[nH]c1=O		HIV	nucleotide incorporation		IC50	RT-F61L	Reverse transcriptase	0.107 µM
CN(C)CC(=O)NC(C)(C)C#Cc1ccc(NC(=O)CSc2nnnn2-c2ccc(C3CC3)cc2Cl)c(Cl)c1F		HIV-1	PicoGreen / fluorescence		IC50	RT-K103 Y181C	Reverse transcriptase	<1 µM
CN(C)CCN1CCn2c(nc(C(=O)NCc3ccc(F)cc3)c(O)c2=O)C1(C)C		HIV-1	ELISA		IC50		Integrase	<10 µM
CC(C)(C)c1ccc(-n2nnnc2SCC(=O)Nc2ccc(-c3ccc(OCCN4CCC(C(=O)O)CC4)cc3)cc2Cl)c(Cl)c1		HIV-1	PicoGreen / fluorescence	WT	IC50		Reverse transcriptase	<1 µM
CN(C)C(=O)C(=O)N(C)C1CN(Cc2ccccc2)CCn2c1nc(C(=O)NCc1ccc(F)cc1)c(O)c2=O		HIV-1	ELISA		IC50		Integrase	<10 µM
Cn1cc(NC(=O)c2ccc(NC(=O)CSc3nnnn3-c3ccc(C(C)(C)C)cc3Cl)c(Cl)c2)cc1C(=O)O		HIV-1	PicoGreen / fluorescence	WT	IC50		Reverse transcriptase	<1 µM
Nc1nc2c(ncn2[C@H]2CC[C@@H](COP(=O)(O)OP(=O)(O)OP(=O)(O)OP(=O)(O)OC[C@H]3O[C@@H](n4cnc5c(N)ncnc54)[C@H](O)[C@@H]3O)O2)c(=O)[nH]1		HIV	nucleotide incorporation / radiometric		fold resistance	RT-D67N K70R	Reverse transcriptase	0.2
O=C1c2c(O)c(=O)c(-c3ccccn3)cn2CCN1Cc1ccc(Cl)c(Cl)c1		HIV-1	ELISA		IC50		Integrase	<0.01 µM
CC(C)(C#Cc1ccc(NC(=O)CSc2nnnn2-c2cc(C3CC3)cc(C(F)(F)F)c2Cl)c(Cl)c1F)NC(=O)c1ccc[n+]([O-])c1		HIV-1	PicoGreen / fluorescence	WT	IC50		Reverse transcriptase	<1 µM

Inhibition is in % at the dose shown (toxicity tests: loss of growth or viability). Neighbouring rows are from separate reports. a–b is a range or a potency band. Fold resistance has wild type as its base. ICn is the concentration giving n% inhibition.